Compound potency records, mixed from different reports. Data source: NIAID ChemDB in PubChem.

Shared fields: growth or infection tests; agent: Parainfluenza virus; read by: cytopathic effect; endpoint: EC50

ECn is the concentration giving n% inhibition of infection, replication or growth. Lines come from different laboratories, so protocols vary. Two numbers with a dash give a range or band. An empty or dashed field is not shown.

structure	cells	strain or isolate	value
CC(C)[Si]1(C(C)C)OC[C@H]2O[C@@H](n3cnc4cc(Cl)c(Cl)cc43)[C@@H](O)[C@H]2O[Si](C(C)C)(C(C)C)O1	HeLa	TYPE 3	>10 µg/mL
C/C=C1\[C@H](OC2O[C@H](CO)[C@@H](O)[C@H](O)[C@H]2O)OC=C(C(=O)OC)[C@H]1CC(=O)OC	HEP-2	TYPE 3	20.8 µM
OC[C@H]1O[C@H](n2cnc3cc(Cl)c(Cl)cc32)[C@@H](O)[C@H]1O	HeLa	TYPE 3	>200 µg/mL
C/C=C1/[C@H](O[C@@H]2O[C@H](CO)[C@@H](O)[C@H](O)[C@H]2O)OC=C(C(=O)OC)[C@H]1CC(=O)OCCc1ccc(O)c(O)c1	HEP-2	TYPE 3	11.7 µM
OCCOC(CCO)n1cnc2cc(Cl)c(Cl)cc21	HeLa	TYPE 3	>100 µg/mL
CCN1C[C@]2(COC)CC[C@H](OC)[C@]34C5CC6[C@H](OC)C5[C@](O)(C[C@@H]6OC)[C@@](O)(C13)[C@@H](OC)[C@H]24	VERO	TYPE 3	1–32 µg/mL
OC[C@H]1O[C@@H](n2cnc3cc(Cl)c(Cl)cc32)[C@@H](O)[C@H]1O	HeLa	TYPE 3	>100 µg/mL
Nc1nc2c(ncn2COCOCP(=O)(O)O)c(=O)[nH]1		14702 (TYPE 3)	100 µg/mL
OC[C@H]1O[C@@H](n2cnc3cc(Cl)c(Cl)cc32)[C@H](O)[C@H]1O	HeLa	TYPE 3	>100 µg/mL
CCN1C[C@]2(CO)CC[C@H](OC)[C@]34C5CC6[C@H](OC)C5[C@](O)(C[C@@H]6OC)[C@@](O)(C13)[C@@H](OC)[C@H]24	VERO	TYPE 3	8–32 µg/mL
Nc1nccc2c1ncn2[C@@H]1O[C@H](CO)[C@@H](O)[C@H]1O	VERO	TYPE 3	2 µg/mL
Nc1nc2c(ncn2CCOCP(=O)(O)O)c(=O)[nH]1		C243 (TYPE 3)	32 µg/mL
Nc1ccn([C@@H]2C[C@H](CO)[C@@H](O)[C@H]2O)c(=O)n1	VERO	TYPE 3	6 µg/mL
C/C=C1\[C@H](OC2O[C@H](CO)[C@@H](O)[C@H](O)[C@H]2O)OC=C(C(=O)O)[C@H]1CC(=O)OCC(OCC)c1ccc(O)c(O)c1	HEP-2	TYPE 3	20.8 µM
NC(=O)c1csc([C@@H]2O[C@H](CO)[C@@H](O)[C@H]2O)n1	VERO	TYPE 3/C243	150 µg/mL

The first 2 rows once more:

structure,cells,strain or isolate,value
CC(C)[Si]1(C(C)C)OC[C@H]2O[C@@H](n3cnc4cc(Cl)c(Cl)cc43)[C@@H](O)[C@H]2O[Si](C(C)C)(C(C)C)O1,HeLa,TYPE 3,>10 µg/mL
C/C=C1\[C@H](OC2O[C@H](CO)[C@@H](O)[C@H](O)[C@H]2O)OC=C(C(=O)OC)[C@H]1CC(=O)OC,HEP-2,TYPE 3,20.8 µM